Pooled drug test results. Numbers come from NIAID ChemDB, via PubChem.

Common to all: toxicity to cultured cells; cells: MT-4; read-out: CC50

Neighbouring rows are from separate reports. Blank or dashed fields: not listed here. CCn: concentration that lowers growth or viability of the cells by n%.

{"smiles": "O=C(NCCc1ccccc1)Nc1nc(C(F)(F)F)cs1", "value": ">1 µg/mL"}
{"smiles": "Nc1ncnc2c1ncn2[C@H]1CO[C@@H](CO)S1", "value": ">395 µM"}
{"smiles": "CC(=O)c1ccccc1N[C@H](C(N)=O)c1c(Cl)cccc1Cl", "value": "52 µM"}
{"smiles": "COc1ccc(-n2c(CNC(=O)COc3ccc4ccccc4c3)n[nH]c2=S)cc1", "read by": "MTT", "value": "≥46.2 µg/mL"}
{"smiles": "Cc1cn([C@H]2CS[C@@H](CO)O2)c(=O)[nH]c1=O", "value": ">410 µM"}
{"smiles": "O=C(O)c1cc(Cc2cc(C(c3ccc(O)c(C(=O)O)c3)c3ccc(O)c(C(=O)O)c3)cc(C(=O)O)c2O)ccc1O", "value": "74 µg/mL"}
{"smiles": "COc1ncnc(NS(=O)(=O)c2ccc(N=C3C(=O)N(CN4CCCC4)c4ccccc43)cc2)c1OC", "value": "2.4 µg/mL"}
{"smiles": "CC(=O)OC[C@H]1O[C@@H](n2c(-c3ccccc3)cc(-c3ccco3)c(C#N)c2=O)[C@H](OC(C)=O)[C@@H](OC(C)=O)[C@@H]1OC(C)=O", "read by": "XTT", "value": ">16.8 µM"}
{"smiles": "[N-]=[N+]=N[C@H]1C[C@H](CO)S[C@@H]1n1cnc2c(Cl)ncnc21", "value": ">100 µM"}
{"smiles": "Cc1ccc(C(=O)Nc2ccc(S(=O)(=O)O)c3cc(S(=O)(=O)O)cc(S(=O)(=O)O)c23)cc1NC(=O)c1cccc(NC(=O)Nc2cccc(C(=O)Nc3cc(C(=O)Nc4ccc(S(=O)(=O)O)c5cc(S(=O)(=O)O)cc(S(=O)(=O)O)c45)ccc3C)c2)c1", "value": "320 µg/mL"}
{"smiles": "FC(F)(F)[C@@]1(C#CC2CC2)OC(=S)Nc2ccc(Cl)cc21", "read by": "MTT", "value": "40 µg/mL"}
{"smiles": "COc1cc(O)c2c(c1)C(=O)c1c(cc3c(c1O)-c1c(cc(C)c(C(=O)N[C@H](C)C(=O)O)c1O)[C@H](O[C@@H]1O[C@H](C)[C@H](N)[C@H](O[C@@H]4OC[C@@H](O)[C@H](O)[C@@H]4O)[C@H]1O)[C@H]3O)C2=O", "value": ">100 µg/mL"}
{"smiles": "CC(=O)c1ccccc1N[C@@H](C(N)=O)c1c(Cl)cccc1Cl", "value": "120 µM"}
{"smiles": "CCCOc1cccc(CCNC(=S)Nc2nccs2)c1", "value": "75 µM"}
{"smiles": "CN(C)CCOc1c(Br)c(Br)c(Br)c2c1OC(C)(C)C2", "read by": "MTT", "value": "12.4 µM"}
{"smiles": "Nc1ccn([C@H]2CO[C@H](CO)O2)c(=O)n1", "value": ">465 µM"}
{"smiles": "COc1ncnc(NS(=O)(=O)c2ccc(N=C3C(=O)N(CN(C)C)c4ccccc43)cc2)c1OC", "value": "<1 µg/mL"}
{"smiles": "C=C(c1ccc(F)cc1)c1c(C)c(=O)[nH]c(=O)n1COCc1ccccc1", "read by": "MTT", "value": "151 µM"}
{"smiles": "CCc1nc(NCN2C(=O)C(=Nc3ccc(S(=O)(=O)Nc4ncnc(OC)c4OC)cc3)c3cc(C)ccc32)nc(N)c1-c1ccc(Cl)cc1", "value": "7.1 µg/mL"}
{"smiles": "CC(=O)Nc1ccc(SSc2ccc(NC(C)=O)cc2C(N)=O)c(C(N)=O)c1", "value": ">120 µM"}
{"smiles": "C=C(c1cc(OC)cc(OC)c1)c1c(C)c(=O)[nH]c(=O)n1COCc1ccccc1", "read by": "MTT", "value": "133 µM"}
{"smiles": "O=c1[nH]cnc2c1[nH]c[n+]2[C@@H]1CS[C@@H](CO)O1", "value": ">410 µM"}
{"smiles": "Cc1cc(=O)oc2cc(OC(C)(C)[C@@H](COC(=O)C34CCC(C)(C(=O)O3)C4(C)C)OC(=O)C34CCC(C)(C(=O)O3)C4(C)C)ccc12", "value": "20 µM"}
{"smiles": "CC(=O)OC[C@H]1O[C@@H](n2c(-c3ccc(C)cc3)cc(-c3ccccc3)c(C#N)c2=O)[C@H](OC(C)=O)[C@@H](OC(C)=O)[C@@H]1OC(C)=O", "read by": "XTT", "value": ">11.7 µM"}
{"smiles": "COc1cc([C@H]2c3c(cc4c(c3OC)OCO4)C[C@H]3CSC[C@@H]32)cc(C)c1OC", "value": "163 µM"}
{"smiles": "O=C1N(Cc2ccccc2)c2cccn2S(=O)(=O)N1Cc1cccc(F)c1", "read by": "MTT", "value": ">324 µM"}
{"smiles": "COc1ncnc(NS(=O)(=O)c2ccc(N=C3C(=O)N(CN4CCOCC4)c4ccc(C)cc43)cc2)c1OC", "value": "8.9 µg/mL"}
{"smiles": "Cc1cn([C@@H]2S[C@H](CO)C[C@@H]2N=[N+]=[N-])c(=O)[nH]c1=O", "value": ">100 µM"}
{"smiles": "C=C(C)[C@@H]1CC[C@]2(C(=O)NCCCCCCCNC(C)=O)CC[C@]3(C)[C@H](CC[C@@H]4[C@@]5(C)CC[C@H](OC(=O)CC(C)(C)C(=O)O)C(C)(C)[C@@H]5CC[C@]43C)[C@@H]12", "value": "8 µM"}
{"smiles": "Fc1ccc(CCNC(=S)Nc2nccs2)cc1", "value": "78 µM"}
{"smiles": "CC(=O)OC[C@H]1O[C@@H](n2c(-c3ccccc3)cc(-c3ccco3)c(C#N)c2=O)[C@H](OC(C)=O)[C@@H](OC(C)=O)[C@H]1OC(C)=O", "read by": "XTT", "value": ">11.9 µM"}
{"smiles": "O=c1ccn([C@H]2CS[C@@H](CO)O2)c(=O)[nH]1", "value": ">435 µM"}
{"smiles": "O=C1N(Cc2ccccc2)c2cccn2S(=O)(=O)N1Cc1ccccc1", "read by": "MTT", "value": "267 µM"}
{"smiles": "Cc1cc(=O)oc2c([C@H](COC(=O)C34CCC(C)(C(=O)O3)C4(C)C)OC(=O)C34CCC(C)(C(=O)O3)C4(C)C)c(OC(C)C)ccc12", "value": "20 µM"}
{"smiles": "CCOCn1c(Cc2ccccc2)c(C(C)C)c(=O)[nH]c1=O", "read by": "MTT", "value": ">100 µM"}
{"smiles": "O=C1[C@@H](Cc2ccccc2)NC(=S)N1c1ccccc1", "value": ">100 µg/mL"}
{"smiles": "COc1ccc([C@H]2c3c(cc4c(c3OC)OCO4)C[C@H]3CSC[C@@H]32)cc1OCc1ccccc1", "value": ">840 µM"}
{"smiles": "Cc1cn([C@H]2S[C@H](CO)C[C@@H]2N=[N+]=[N-])c(=O)[nH]c1=O", "value": ">100 µM"}
{"smiles": "O=C1N(Cc2ccc(Cl)cc2Cl)c2cccn2S(=O)(=O)N1Cc1cccc(Cl)c1", "read by": "MTT", "value": ">265 µM"}
{"smiles": "COc1ncnc(NS(=O)(=O)c2ccc(N=C3C(=O)N(CN4CCOCC4)c4ccccc43)cc2)c1OC", "value": "2.2 µg/mL"}
{"smiles": "COc1cc([C@H]2c3c(cc(OC)c(OC)c3OC)C[C@H]3COC(=O)[C@@H]32)cc(C)c1OC", "value": "183 µM"}
{"smiles": "CCN1C[C@H](C)N2C(=C(O)C3C(=O)N4Cc5ccc(F)cc5OCCCS(=O)(=O)N(C)C(=N4)C32)C1=O", "value": "11.3 µM"}
{"smiles": "NC1=CS(=O)(=O)OC12[C@@H](CO)O[C@@H](n1ccc(=O)[nH]c1=O)[C@@H]2O", "value": ">100 µg/mL"}
{"smiles": "CC(=O)c1ccc(C)cc1NC(C(N)=O)c1c(Cl)cccc1Cl", "value": "710 µM"}
{"smiles": "C=C(C)[C@@H]1CC[C@]2(C(=O)On3nnc4ccccc43)CC[C@]3(C)[C@H](CC[C@@H]4[C@@]5(C)CC[C@H](OC(=O)C(C)(C)CC(=O)O)C(C)(C)[C@@H]5CC[C@]43C)[C@@H]12", "value": "2.5 µM"}
{"smiles": "CNc1ncnc2c1ncn2[C@H]1S[C@@H](CO)C[C@@H]1N=[N+]=[N-]", "value": ">100 µM"}
{"smiles": "Cc1ccc(NC(=S)NNC(=O)CNC(=O)COc2ccc3ccccc3c2)cc1", "read by": "MTT", "value": "91.4 µg/mL"}
{"smiles": "NC(=O)[C@H](Nc1ccccc1[N+](=O)[O-])c1c(Cl)cccc1Cl", "value": "82 µM"}
{"smiles": "O=C(NCCc1ccccc1)Nc1nc2ccc(F)cc2s1", "value": ">100 µg/mL"}
{"smiles": "CC1(C)Cc2c(Br)c(Br)c(Br)c(O)c2O1", "read by": "MTT", "value": "60 µM"}
{"smiles": "C=C(C)[C@@H]1CC[C@]2(C(=O)NCCCCCCNC(C)=O)CC[C@]3(C)[C@H](CC[C@@H]4[C@@]5(C)CC[C@H](OC(=O)CC(C)(C)C(=O)O)C(C)(C)[C@@H]5CC[C@]43C)[C@@H]12", "value": "7.5 µM"}
{"smiles": "CC(=O)OCC1=C[C@@H]2C(=O)[C@]3(C=C(C)[C@H](OC(C)=O)[C@@]3(O)[C@@H]1OC(C)=O)[C@H](C)C[C@@H]1[C@H]2C1(C)C", "value": ">211 µM"}
{"smiles": "COc1ccc(Br)cc1CCNC(=S)Nc1nccs1", "value": "94 µM"}
{"smiles": "O=C(O)c1cccc(Cc2cccc(C(=O)O)c2O)c1O", "value": "41 µg/mL"}
{"smiles": "CCN1C[C@H](C)N2C(=C(O)C3C(=O)N4Cc5ccc(F)cc5C(=O)NCCCCCCN(C)C(=N4)C32)C1=O", "value": "0.8 µM"}
{"smiles": "O=C(O)c1cc(Cc2ccc(O)c(C(=O)O)c2)ccc1O", "value": "35 µg/mL"}
{"smiles": "C=C(C)[C@@H]1CC[C@]2(C(=O)NCCCCCCCCNC(C)=O)CC[C@]3(C)[C@H](CC[C@@H]4[C@@]5(C)CC[C@H](OC(=O)CC(C)(C)C(=O)O)C(C)(C)[C@@H]5CC[C@]43C)[C@@H]12", "value": "7 µM"}
{"smiles": "CC(=O)OC[C@H]1O[C@@H](n2c(-c3ccc(C)cc3)cc(-c3ccccc3)c(C#N)c2=O)[C@H](OC(C)=O)[C@@H](OC(C)=O)[C@H]1OC(C)=O", "read by": "XTT", "value": ">16.5 µM"}
{"smiles": "O=C1N(Cc2ccccc2Cl)c2cccn2S(=O)(=O)N1Cc1ccccc1", "read by": "MTT", "value": ">311 µM"}
{"smiles": "Cc1nc(NC(=O)NCCc2ccccc2)sc1C", "value": ">100 µg/mL"}
{"smiles": "Cc1ccc(NC(=S)NCCc2c(F)cccc2F)nc1", "value": ">325 µM"}
{"smiles": "Cc1ccc(C(O)(c2c(C)c(=O)[nH]c(=O)n2COCc2ccccc2)C(C)C)cc1", "read by": "MTT", "value": "155 µM"}
{"smiles": "O=C(COc1ccc2ccccc2c1)NCC(=O)NNC(=S)Nc1ccccc1", "read by": "MTT", "value": "≥69.9 µg/mL"}
{"smiles": "COc1ccc(-c2cc(-c3ccco3)c(C#N)c(=O)n2[C@@H]2O[C@H](COC(C)=O)[C@@H](OC(C)=O)[C@H](OC(C)=O)[C@H]2OC(C)=O)cc1", "read by": "XTT", "value": ">11.6 µM"}
{"smiles": "COc1ncnc(NS(=O)(=O)c2ccc(N=C3C(=O)Nc4ccccc43)cc2)c1OC", "value": "103.7 µg/mL"}

Again, the opening 5 rows:

| smiles | read by | value |
|---|---|---|
| O=C(NCCc1ccccc1)Nc1nc(C(F)(F)F)cs1 |  | >1 µg/mL |
| Nc1ncnc2c1ncn2[C@H]1CO[C@@H](CO)S1 |  | >395 µM |
| CC(=O)c1ccccc1N[C@H](C(N)=O)c1c(Cl)cccc1Cl |  | 52 µM |
| COc1ccc(-n2c(CNC(=O)COc3ccc4ccccc4c3)n[nH]c2=S)cc1 | MTT | ≥46.2 µg/mL |
| Cc1cn([C@H]2CS[C@@H](CO)O2)c(=O)[nH]c1=O |  | >410 µM |